These are literature values, as cited in patent US20090209937A1 (priority 2007, published 2009).

Sequences of proteins named here, by UniProt entry; tags and fusion partners are left off.
UniProt Q02294, whole entry, looked up: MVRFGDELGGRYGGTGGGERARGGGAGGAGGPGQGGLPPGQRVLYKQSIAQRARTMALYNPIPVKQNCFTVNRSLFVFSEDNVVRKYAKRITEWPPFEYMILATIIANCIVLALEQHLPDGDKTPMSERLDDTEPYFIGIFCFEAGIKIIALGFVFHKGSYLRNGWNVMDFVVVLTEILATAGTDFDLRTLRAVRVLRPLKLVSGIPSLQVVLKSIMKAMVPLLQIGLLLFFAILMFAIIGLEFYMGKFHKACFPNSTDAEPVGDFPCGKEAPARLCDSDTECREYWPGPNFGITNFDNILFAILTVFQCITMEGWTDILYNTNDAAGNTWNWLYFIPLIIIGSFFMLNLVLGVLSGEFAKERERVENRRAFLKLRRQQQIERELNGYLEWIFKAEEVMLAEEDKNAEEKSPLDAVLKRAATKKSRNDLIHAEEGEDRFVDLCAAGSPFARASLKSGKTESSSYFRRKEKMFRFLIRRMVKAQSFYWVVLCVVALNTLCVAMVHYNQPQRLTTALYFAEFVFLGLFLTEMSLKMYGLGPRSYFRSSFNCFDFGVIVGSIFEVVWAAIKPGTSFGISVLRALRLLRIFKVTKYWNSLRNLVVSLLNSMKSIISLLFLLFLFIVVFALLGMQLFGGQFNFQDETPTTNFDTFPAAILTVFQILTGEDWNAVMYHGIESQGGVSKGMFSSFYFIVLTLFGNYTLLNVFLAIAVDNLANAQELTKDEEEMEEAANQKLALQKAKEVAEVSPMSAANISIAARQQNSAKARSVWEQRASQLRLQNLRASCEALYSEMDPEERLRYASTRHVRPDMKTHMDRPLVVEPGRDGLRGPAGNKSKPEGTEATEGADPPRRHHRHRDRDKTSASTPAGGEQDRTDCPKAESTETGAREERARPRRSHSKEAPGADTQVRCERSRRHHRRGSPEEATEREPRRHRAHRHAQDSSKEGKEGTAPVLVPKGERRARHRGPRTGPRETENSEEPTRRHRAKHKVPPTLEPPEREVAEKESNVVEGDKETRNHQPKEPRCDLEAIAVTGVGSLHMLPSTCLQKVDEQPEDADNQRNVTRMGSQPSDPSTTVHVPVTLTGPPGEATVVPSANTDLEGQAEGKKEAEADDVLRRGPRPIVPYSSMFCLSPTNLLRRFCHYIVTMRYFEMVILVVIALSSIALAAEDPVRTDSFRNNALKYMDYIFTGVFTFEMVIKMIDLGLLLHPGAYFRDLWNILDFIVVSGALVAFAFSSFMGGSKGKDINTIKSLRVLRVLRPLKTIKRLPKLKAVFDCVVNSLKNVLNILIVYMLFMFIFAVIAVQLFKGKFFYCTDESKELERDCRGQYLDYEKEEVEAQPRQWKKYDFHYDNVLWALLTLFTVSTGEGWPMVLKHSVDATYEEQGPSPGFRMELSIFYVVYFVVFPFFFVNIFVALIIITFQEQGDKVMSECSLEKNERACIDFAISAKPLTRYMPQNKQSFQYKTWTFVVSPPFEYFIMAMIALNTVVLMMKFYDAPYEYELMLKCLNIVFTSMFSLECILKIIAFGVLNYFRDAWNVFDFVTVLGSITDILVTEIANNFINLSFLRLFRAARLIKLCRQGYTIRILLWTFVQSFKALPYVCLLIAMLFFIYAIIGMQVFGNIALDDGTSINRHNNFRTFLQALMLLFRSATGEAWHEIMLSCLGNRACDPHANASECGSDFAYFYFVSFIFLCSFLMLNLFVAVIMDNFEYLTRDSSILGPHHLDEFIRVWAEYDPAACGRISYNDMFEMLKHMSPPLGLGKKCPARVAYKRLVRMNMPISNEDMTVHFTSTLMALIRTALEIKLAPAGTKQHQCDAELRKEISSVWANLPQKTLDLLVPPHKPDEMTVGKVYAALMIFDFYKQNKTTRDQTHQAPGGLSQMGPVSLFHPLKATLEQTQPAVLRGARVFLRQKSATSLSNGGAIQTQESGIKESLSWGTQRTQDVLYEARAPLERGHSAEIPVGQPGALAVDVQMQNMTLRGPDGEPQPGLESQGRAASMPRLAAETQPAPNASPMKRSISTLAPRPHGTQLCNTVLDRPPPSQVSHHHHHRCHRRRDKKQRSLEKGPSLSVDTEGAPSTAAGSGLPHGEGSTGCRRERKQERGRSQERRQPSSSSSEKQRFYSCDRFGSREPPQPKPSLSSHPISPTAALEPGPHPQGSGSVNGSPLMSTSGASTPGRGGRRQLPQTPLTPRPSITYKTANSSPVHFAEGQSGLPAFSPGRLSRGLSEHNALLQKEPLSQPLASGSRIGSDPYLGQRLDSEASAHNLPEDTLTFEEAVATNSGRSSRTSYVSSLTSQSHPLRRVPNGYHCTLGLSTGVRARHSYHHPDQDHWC

This series has as its target expressed recombinant rat Cav2.2 calcium channel subunits (Rattus norvegicus, UniProt Q02294). To be noted: cited from earlier work.

Take ω-conotoxin GVIA [ω-CTX-G]: the Kd is approximately 100 nM.
